Kd data for one molecule are collected here from article PMC10184898 (2023).

This assay deals with His-MoMagA^G187S (Magnaporthe oryzae, UniProt O13314 1-356, G187S). As to the kind of experiment: MST.

B1: His-MoRgs7 (natural protein)
chain: MANATSTPAVPAPRLNTGPVSIFFMVWGVTWTVLLVLGMAFLYYNRAMPLVRVRGLRLTFAAVILLHLYWILCQFGLLIFEYVPPEIMFWVMGMYVPWGIALFHASNSRFLYVAEAQKRFVGKAPAARQKPSASKNKTLLGKFWRLEYERRIVVVVCVGMALQFLLLVTMYLLSRKYHPSFGIPGTEVTTTNPMERLMQLYSGWEWWPSILWQFFWAWLVAPYILFKSRGIKDTLGWRVQTIACCIAGLPATPLWLAALYLPAFGPVNQYFIPPQWICVSITFIEFFAIILPCWQVLTHKTLRRETLDAIANWESRRGGDKDGKQSFASESTRQESTTSTWRLLSEIEKATGQSESLFTMAALDYMLKRNPEPLREFSALRDFSGENIAFLSAVSDWKAGAAEPKAPTDKTPAHSEEGVELRRVRFNDALHIYAEFVSPRHAEFQVNIGSADQKQLEAVFGPAAQILLGDSQRFDDLAVPFEMESTGEGVERVRAQYFGEIPDEFSDQVFDDAEVSIKYLVLTNTWPKFVKQGRYSMSINSVVSQSSDGSAEKEIGRVKKYLKRMKFGGAAL
Turning to B1, the dissociation constant (Kd) – broadly, the free concentration of one partner at which half of the binding sites on the other are occupied at equilibrium, for simple one-to-one binding – stood at 462 nM.
